In paper PMC11267843:
Construct, isoform or probe ends are uncertain for at least one entry.

Molecular target: PITG_13587 bZIP (Phytophthora infestans) (UniProt D0NMC1)
Assay: EMSA
Conditions: self-competitor at 1, 10, 50-fold; recombinant protein; protein details: 6xHis, GST (N- or C-terminal, per PBM vectors); label: Cy5 (probe), unlabeled as competitor

“ATGCCCGTCTCTAACACGTGTCCTCTCGATACTA (double strand) [bZIP wild-type motif]”: binds.
